What was measured:
sodium channels [1] = assay: Intrathecal (it) administration of S3.2 to mice
sodium channels [2] = assay: Intracerbroventricular (ICV) injection of S3.2 to mice
sodium channels [3] = assay: iv administration to rats: skeletal muscle contraction, blood pressure and heart rate; settings: 80 nmol iv

## Xaa2-Asn-Cys-Cys-Asn-Gly-Gly-Cys-Ser-Ser-Lys-Xaa4-Cys-Arg-Asp-His-Als-Arg-Cys-Cys-#
Sodium channels [1]
  effect following intrathecal administration: rapid hindlimb paralysis that spreads to include the entire body
Sodium channels [2]
  spectrum of activity after ICV injection: rapid loss of righting reflex, coma-like inactivity and spastic uncontrolled limb movement
Sodium channels [3]
  effect on blood pressure: no effect
